Data published in patent publication US20230279072A1, “REGULATORY T CELL EPITOPES” (EpiVax Inc., priority 2020, published 2023).

Test system: CD4+ T cells in PBMCs from healthy donors
Test: Tetanus Toxoid Bystander Suppression Assay (TTBSA)
Assay type: cell-based, human
Conditions: free peptide 8, 16, 24 μg/ml; HSA-conjugate 10, 40 and 100 μg/ml (0.25, 1.0, 2.5 μg/ml FV621)

## HSA: recombinant human serum albumin, not conjugated to FV621 [reference compound]
  inhibition of TT mediated CD4+ T cell proliferation, free peptide vs HSA conjugate: did not have any impact
